Here are results for 1 compound from US20230158005A1 (priority 2020, published 2023).

Each structure is given as a SMILES string.

The test system of this test is A/England/195/2009 (H1N1). Description: Viral titers in the lungs of mice intranasally infected with influenza A. The format is in vivo.

With `CC1=C(COCCC(C)(C)C)C(=O)N(Nc2ccc(C(F)(F)F)c(Cl)n2)C1=O` [felezonexor, 3-[(3,3-dimethylbutoxy)methyl]-1-{[6-chloro-5-(trifluoromethyl) (2-pyridyl)]amino}-4-methylazoline-2,5-dione], the “reduction in viral titers in the lung” value was “two orders of magnitude” (Day 5, regimen D: 100 mg/kg oral, bid on Days 0, 2, 4, qd on Days 1, 3) and “one order of magnitude” (Day 5, regimen E: 100 mg/kg oral, qd on Days 0, 4, bid on Day 2).
